Molecular target: BoNT A light chain (BoNT A Lc) (Clostridium botulinum, UniProt P0DPI0)
Assay: Kinetic constants of BoNT A substrates, HPLC assays, non-linear regression

Row | Compound | Km compared with full-length SNAP-25 (in words) (versus full-length SNAP-25) | kcat (Table 4, FRET substrate, 4 nM BoNT A light chain, assays by HPLC, triplicate) | type of kinetics (in words) (initial hydrolysis rates at various substrate concentrations)
1 | CC[C@H](C)[C@H](NC(=O)[C@H](CCCNC(=N)N)NC(=O)[C@@H](NC(=O)[C@H](CCCNC(=N)N)NC(C)=O)C(C)C)C(=O)N[C@@H](CC(=O)O)C(=O)N[C@@H](C)C(=O)N[C@@H](C)C(=O)N[C@@H](CC(N)=O)C(=O)N[C@@H](CCC(N)=O)C(=O)N[C@@H](CCCNC(=N)N)C(=O)N[C@@H](C)C(=O)N[C@H](C(=O)N[C@@H](CCCNC(=N)N)C(=O)N[C@@H](CCSC)C(N)=O)[C@@H](C)O | statistically identical |  | 
2 | [DabcylK] R V R I D A A N Q R A T R M [SFC] |  | 1.7 ± 0.090 s⁻¹ | saturable Michaelis-Menten kinetics

— patent publication US20120202754A1 (priority 2009, published 2012)
